Test results from publication PMC1664607 (PLoS Medicine, 2006).
No dose or concentration is given here for some results.

How the values were obtained:
M. bovis BCG Tokyo = type: cell-based; conditions: 14C OPC-67683, 48 h incubation, after acetonitrile
[1] = Radioactivity distribution of 14C OPC-67683 in broth (control without bacterial culture); conditions: Control: 14C OPC-67683 in 7H9/TN-ADC broth, 48 h

## C[C@]1(COc2ccc(N3CCC(Oc4ccc(OC(F)(F)F)cc4)CC3)cc2)Cn2cc([N+](=O)[O-])nc2O1 [OPC-67683, (R)-2-methyl-6-nitro-2-(4-[4-(4-trifluoromethoxyphenoxy)piperidin-1-yl]phenoxymethyl}-2,3-dihydroimidazo[2,1-b]oxazole]
M. bovis BCG Tokyo
  Total DPM, Pellet: 182886.84 DPM
  Total DPM, Supernatant: 678566.21 DPM
[1]
  Total DPM, Pellet: 24558.06 DPM
  Total DPM, Supernatant: 823295.30 DPM
